Earlier results as cited in patent publication US20230210890A1, “COMPOSITIONS AND METHODS OF TREATING COVID-19 WITH HEPARIN OR OTHER NEGATIVELY CHARGED MOLECULES” (Siemens Healthcare Diagnostics Inc., priority 2020, published 2023).

Test system: hospitalized patients with Covid-19
Details: WHO Solidarity Trial; cited from earlier work

B1: interferon beta-1a (protein, UniProt P01574 22-187, looked up)
Interferon beta: MSYNLLGFLQRSSNFQCQKLLWQLNGRLEYCLKDRMNFDIPEEIKQLQQFQKEDAALTIYEMLQNIFAIFRQDSSSTGWNETIVENLLANVYHQINHLKTVLEEKLEKEDFTRGKLMSSLHLKRYYGRILHYLKAKEYSHCAWTIVRVEILRNFYFINRLTGYLRN
notes: repurposed anti-viral drug
effect on hospitalized patients with Covid-19: little or no effect
